Patent US12122815B2 (TAKEDA PHARMACEUTICAL COMPANY LIMITED, priority 2018, dated 2024)

Experiment: general procedure: Fmoc solid-phase peptide synthesis; Sieber amide resin; DIPCDI/Oxyma
Settings: whole synthesis, scale 0.01 mmol, TFA salt; acetate after ion exchange

Which isolated mass does the source give for “Tyr-Aib-Glu-Gly-Thr-Val-Val-Ser-Leu-Tyr-Ser-Ile-Aib-Leu-Asp-Lys-Gln-Ala-Gln-Aib-Glu-Phe-Val-Lys-Trp-Leu-Leu-Lys-Gly-Gly-Pro-Ser-Ser-Gly-Ala-Pro-Pro-Pro-Ser-Lys(Heda-Gly-Gly-Gly-Gly-)” here?
Its isolated mass is 1.0 mg.
